From patent US12036312B2, “Non-aqueous topical compositions comprising a halogenated salicylanilide” (priority 2016, dated 2024)

Each compound was assayed on S. aureus (assay: Therapeutic index (LD50 rats / MIC100 S. aureus)). Settings: ratio of LD50 in rats to MIC.
Set-up: species or system Staphylococcus aureus

Question: Which “Ther. Index (LD50,rats/MIC100, S. aureus)” value does the source give for `Cc1cc(C(C#N)c2ccc(Cl)cc2)c(Cl)cc1NC(=O)c1cc(I)cc(I)c1O` (stereo not drawn) [Closantel, closantel] here?
Answer: The value was 176,000.

Question: For `O=C(Nc1ccc([N+](=O)[O-])cc1Cl)c1cc(Cl)ccc1O` [Niclosamide, niclosamide], which “Ther. Index (LD50,rats/MIC100, S. aureus)” value is on record?
Answer: The value was 12,500,000.

Question: With `O=C(Nc1ccc(Oc2ccc(Cl)cc2)c(Cl)c1)c1cc(I)cc(I)c1O` [Rafoxanide, rafoxanide] as the compound, how does the “Ther. Index (LD50,rats/MIC100, S. aureus)” value read?
Answer: Its value is 1,875,000.
